A mixed list of measured activities; the numbers were collected in NIAID ChemDB.

Shared fields: tests in culture; organism: Candida glabrata; read-out: MIC

An empty or dashed field is not shown. Lines come from different laboratories, so protocols vary. a–b is a range or a potency band.

smiles	strain	read by	setting	value
Cc1ccc(C(O)c2cccc(C(=O)CCn3ccnc3)c2)cc1	RTCC 1054	broth dilution	-	16 µg/mL
CC1CC(=O)N(CCCCc2ccccc2)C1=O	CCC 115-2000	broth dilution / turbidity	-	125 µg/mL
OC(Cn1cncn1)(Cn1cncn1)c1ccc(F)cc1F	-	agar	-	50–100 µg/mL
CC[C@@H]([C@H](C)O)n1ncn(-c2ccc(N3CCN(c4ccc(OC[C@@H]5CO[C@@](Cn6cncn6)(c6ccc(F)cc6F)C5)cc4)CC3)cc2)c1=O	40 isolates	broth dilution	pH 7	0.125 µg/mL
CN(Cc1ccc(NS(=O)(=O)c2ccc([N+](=O)[O-])cc2)cc1)CC(O)(Cn1cncn1)c1ccc(F)cc1F	468	resazurin	-	18.3 µg/mL
CC[C@@H]([C@H](C)O)n1ncn(-c2ccc(N3CCN(c4ccc(OC[C@@H]5CO[C@@](Cn6cncn6)(c6ccc(F)cc6F)C5)cc4)CC3)cc2)c1=O	8653	broth dilution	-	0.5 µg/mL
C[C@H]1[C@H](O)[C@@H](C)/C=C/C=C/C=C/C=C/C=C/C=C/C=C/[C@H](O[C@@H]2O[C@H](C)[C@@H](O)[C@H](N)[C@@H]2O)C[C@@H]2O[C@](O)(C[C@@H](O)C[C@@H](O)CC[C@H](O)[C@@H](O)C[C@@H](O)CC(=O)O[C@H]1C)C[C@H](O)[C@H]2C(=O)O	CCC 115-2000	broth dilution / turbidity	-	0.49 µg/mL
CC(C)S(=O)(=O)N1CCN(c2cnn(-c3cc(F)cc(F)c3)c(=O)c2OC2CCC(F)C2)CC1	C110	broth dilution	-	0.25 µg/mL
C[C@@H]1CC(=O)N(c2ccc(Cl)cc2)C1=O	CCC 115-2000	broth dilution / turbidity	-	62.5 µg/mL
CC[C@@]1(O)C[C@H](O[C@H]2C[C@H](N(C)C)[C@H](O[C@H]3C[C@H](O)[C@H](O[C@H]4CCC(=O)[C@H](C)O4)[C@H](C)O3)[C@H](C)O2)c2c(cc3c(c2O)C(=O)c2c(O)cccc2C3=O)[C@H]1C(=O)OC	ATCC 90030	-	-	37.1 µM
CC(=O)N1CCN(c2ccc(OC[C@H]3CO[C@](Cn4ccnc4)(c4ccc(Cl)cc4Cl)O3)cc2)CC1	40 isolates	broth dilution	pH 7	0.06 µg/mL
CN(Cc1ccc(S(=O)(=O)Nc2ccccc2)cc1)CC(O)(Cn1cncn1)c1ccc(F)cc1F	468	resazurin	-	2 µg/mL
CCC(C)CC(C)CCCCCCCCC(=O)N[C@H]1C[C@@H](O)[C@H](NCCN)NC(=O)[C@@H]2[C@@H](O)CCN2C(=O)[C@H]([C@H](O)CCN)NC(=O)[C@H]([C@H](O)[C@@H](O)c2ccc(O)cc2)NC(=O)[C@@H]2C[C@@H](O)CN2C(=O)[C@H]([C@@H](C)O)NC1=O	8659	broth dilution	-	2 µg/mL
C[C@@H]1C(=O)N(CCc2ccccc2)C(=O)[C@@H]1C	CCC 115-2000	broth dilution / turbidity	-	62.5 µg/mL
COc1cccc2c1C(=O)c1c(O)c3c(c(O)c1C2=O)C[C@@](O)(C(=O)CO)C[C@@H]3O[C@H]1C[C@H](N)[C@@H](O)[C@H](C)O1	ATCC 90030	-	-	>100 µM
O=C(CCn1ccnc1)c1ccc(Br)cc1	RTCC 1040	broth dilution	-	64 µg/mL
Clc1ccc(COC(Cn2ccnc2)c2ccc(Cl)cc2Cl)c(Cl)c1	-	agar diffusion / agar	-	110.8 µg/mL
O=c1c(OC2CCCC2)c(N2CCN(S(=O)(=O)NCc3ccccc3)CC2)cnn1-c1cccc(Cl)c1	C454	broth dilution	-	1 µg/mL
CCC(C)n1ncn(-c2ccc(N3CCN(c4ccc(OC[C@H]5CO[C@](Cn6cncn6)(c6ccc(Cl)cc6Cl)O5)cc4)CC3)cc2)c1=O	Clinical isolates	-	-	10.4 µg/mL
CN(Cc1ccc(S(N)(=O)=O)cc1)CC(O)(Cn1cncn1)c1ccc(F)cc1F	468	resazurin	-	3.4 µg/mL
Nc1[nH]c(=O)ncc1F	40 isolates	broth dilution	pH 7	0.125 µg/mL
O=C1c2c(O)ccc(O)c2C(=O)c2c(NCCNCCO)ccc(NCCNCCO)c21	ATCC 90030	-	-	48.6 µM
CCCCCCCC/C=C\CCCCCCCC(=O)N[C@H](C(=O)N1C[C@H](C)C[C@H]1C(=O)N[C@H](C(=O)N[C@@H](CCO)C(=O)N[C@@H](C)CO)C(C)C)[C@@H](C)O	ATCC 90030	broth dilution / visual reading	-	>32 µg/mL
C[C@@H](c1ncncc1F)[C@](O)(Cn1cncn1)c1ccc(F)cc1F	40 isolates	broth dilution	pH 7	0.125 µg/mL
S=C=NCCCCCCCN=C=S	250 multidrug-resistant	visual reading	-	<1 µg/mL
Cc1ccc(N2C(=O)CC(C)C2=O)cc1	CCC 115-2000	broth dilution / turbidity	-	125 µg/mL
CC(C)S(=O)(=O)Nc1ccc(CN(C)CC(O)(Cn2cncn2)c2ccc(F)cc2F)cc1	468	resazurin	-	14.6 µg/mL
O=C(CCn1ccnc1)c1ccc2ccccc2c1	RTCC 1054	broth dilution	-	64 µg/mL
CC(C)CC1NC(=O)CC(CCCCCCCCC(C)O)OC(=O)C(CC(C)C)NC(=O)C(CC(C)C)NC(=O)C(CC(C)C)NC(=O)C(C(C)C)NC(=O)C(CC(=O)O)NC(=O)C(CC(C)C)NC1=O	MTCC 3019	absorbance	-	4 µg/mL

A second listing of 4 rows from above:

smiles	strain	read by	setting	value
COc1cccc2c1C(=O)c1c(O)c3c(c(O)c1C2=O)C[C@@](O)(C(=O)CO)C[C@@H]3O[C@H]1C[C@H](N)[C@@H](O)[C@H](C)O1	ATCC 90030	-	-	>100 µM
Clc1ccc(COC(Cn2ccnc2)c2ccc(Cl)cc2Cl)c(Cl)c1	-	agar diffusion / agar	-	110.8 µg/mL
CC[C@@H]([C@H](C)O)n1ncn(-c2ccc(N3CCN(c4ccc(OC[C@@H]5CO[C@@](Cn6cncn6)(c6ccc(F)cc6F)C5)cc4)CC3)cc2)c1=O	40 isolates	broth dilution	pH 7	0.125 µg/mL
O=C(CCn1ccnc1)c1ccc2ccccc2c1	RTCC 1054	broth dilution	-	64 µg/mL